Measured values from several laboratories, pooled; numbers as filed in NIAID ChemDB.

Common to all: growth or infection tests; species: Mycobacterium tuberculosis

An empty or dashed field is not shown. Conditions beyond the fields shown may differ between rows. ECn is the concentration giving n% inhibition of infection, replication or growth. MIC bound: limit read from a one-dose screen. MIC50, MIC90 and the like: level of inhibition, or share of isolates inhibited. a–b is a range or a potency band. Inhibition is in % at the dose shown (toxicity tests: loss of growth or viability).

structure,conditions,changes,method,strain or isolate,dose,endpoint,result
c1ccc2c(c1)Nc1ccc3ccccc3c1S2,-,-,-,H37Rv,-,MIC,>12.5 µg/mL
CCCCCCCCOC1OC([C@H](CO)OC2O[C@@H](C(O)CO)[C@H](O)[C@H]2O)[C@H](O)[C@H]1O,-,-,-,H37Ra,-,MIC,>128 µg/mL
C/C(=N\Nc1cc(C)c2cccc(C)c2n1)c1ccccn1,-,-,BACTEC,H37Rv,12.5 µg/mL,inhibition,-34%
Clc1cccc2ccc(N3CCC(c4nc(-c5cccnc5)no4)CC3)nc12,-,-,resazurin,H37Rv,-,MIC,15.6–31.5 µM
NNC(=O)c1cc(/C=C/c2ccc([N+](=O)[O-])s2)nc2ccccc12,-,-,fluorescence,H37Rv,-,MIC,1.56 µg/mL
Cc1nn(C(=O)c2ccc(Cl)cc2)c2c1C(c1ccc([N+](=O)[O-])cc1)SC(N)=N2,-,-,resazurin,H37Rv,-,MIC bound,>6.25 µg/mL
NNC(=O)c1ccncc1,-,-,-,R37RV,-,MIC,0.1 µg/mL
Cc1c(OCC(F)(F)F)ccnc1CSc1nc2ccccc2[nH]1,clinical isolate,-,resazurin,-,-,MIC90,0.52 µM
CCCCCCCCCCCCCCCCCCCCP(=O)([O-])C[C@@H]1O[C@H](CO)[C@@H](O)[C@@H]1O,-,-,-,H37Rv,-,EC50,>6.25 µg/mL
O=C(Nc1ccc(N2CCSCC2)cc1)c1ccc(Cl)cc1,-,-,-,103471,-,MIC,>16 µg/mL
NNC(=O)c1cc(-c2ccc([N+](=O)[O-])s2)nc2ccccc12,-,-,fluorescence,H37Rv,-,MIC,1.56 µg/mL
CCC[CH2][Sn]1([CH2]CCC)[O]N=C(c2ccccc2)C(c2ccccc2)[O]1,-,-,BACTEC,H37Rv,-,MIC bound,≤128 µg/mL
Cc1cc(C)c2c(-c3ccccc3)cc(=O)oc2c1,-,-,turbidity,H37Rv,-,EC90,>250 µM
N/C(=N\N=C\c1ccc([N+](=O)[O-])cc1)c1ccncc1,-,-,-,1054,-,MIC,>256 µg/mL
Oc1cc(C(O)CCc2ccc(F)cc2)ccc1Oc1ccccc1,-,INH resistant,resazurin,Clinical isolate,-,MIC,6.25 µg/mL
O=C(Nc1ccccc1N1CCSCC1)c1ccc(-c2ccccc2)cc1,-,-,-,103471,-,MIC,>16 µg/mL
O=C(Nc1ccccc1)c1cc(-c2ccc(-c3ccc([N+](=O)[O-])s3)s2)nc2ccccc12,-,-,fluorescence,H37Rv,-,MIC,>6.25 µg/mL
CCN=c1cc2n(-c3ccc(Cl)cc3)c3ccccc3nc-2cc1Nc1ccc(Cl)cc1,-,-,-,2219 (INH RIF-RES),-,MIC,0.12 µg/mL
O=C(O)c1cc(-c2ccc([N+](=O)[O-])s2)nc2ccccc12,-,-,fluorescence,H37Rv,-,MIC,>6.25 µg/mL
N/C(=N\N=C\c1cccc(Br)c1)c1ccncc1,-,-,-,1481,-,MIC,64 µg/mL
O=c1[nH][nH]c(=O)c2c1[nH]c(=S)n2Cc1ccccc1,-,-,BACTEC,H37Rv,12.5 µg/mL,inhibition,0%
N/C(=N\N=C\c1ccc(Cl)c(Cl)c1)c1ccncc1,-,-,-,1481,-,MIC,256 µg/mL
COc1cc([C@H]2Oc3c(OC)cc(/C=C/C=O)cc3[C@@H]2COC(C)=O)ccc1O,-,-,-,H37Rv (ATCC 27294),-,MIC,64 µg/mL
CC1C(=O)OC2CC[N+]3([O-])CC=C(COC(=O)C(C)(O)C1(C)O)C23,-,-,BACTEC,H37Rv,-,MIC,≥12.8 µg/mL
c1ccc(-c2ccc(CNC(Cn3ccnc3)c3ccccc3)cc2)cc1,-,-,-,CIP103471,-,MIC,4 µg/mL
Oc1cc(C(O)CCc2ccc(Cl)cc2)ccc1Oc1ccccc1,-,INH resistant,resazurin,Clinical isolate,-,MIC,4 µg/mL
CC(C)N=c1cc2n(-c3ccc(Cl)cc3)c3ccccc3nc-2cc1Nc1ccc(Cl)cc1,-,-,-,2218 (SM INH THA-RES),-,MIC,0.5 µg/mL
c1ccc(C(Cn2ccnc2)NCc2cccc3ccccc23)cc1,-,-,-,CIP103471,-,MIC,8 µg/mL
C=C[C@](C)(Cl)[C@@H](Br)/C=C/[C@](C)(Cl)CBr,-,-,-,ATCC 35838 (rifampicin-resistant),-,MIC,6.25 µg/mL
COc1ccc(OC)c(-c2cc(=O)c3c(OC)c(OC)c(OC)c(OC)c3o2)c1,-,-,BACTEC,H37Rv,-,MIC bound,>12.5 µg/mL
NC[C@@H]1O[C@H](O[C@H]2[C@@H](O)[C@H](O[C@@H]3[C@@H](O)[C@H](N)C[C@H](N)[C@H]3O[C@H]3O[C@H](CO)[C@@H](O)C[C@H]3N)O[C@@H]2CO)[C@H](N)[C@@H](O)[C@@H]1O[C@H]1O[C@H](CO)[C@@H](O)[C@H](O)[C@@H]1O,-,-,-,H37Rv (ethionamide-resistant),-,EC50,25–50 µg/mL
COc1cc(OC)cc(-c2noc(C3CCN(c4ccc5cccc(OC)c5n4)CC3)n2)c1,-,-,resazurin,H37Rv,-,MIC,7.8–15.6 µM
C1CCNC1.S=C(S)N1CCCC1,-,-,BACTEC,H37Rv,-,MIC,0.8 µg/mL
Clc1ccc(Nc2cc3nc4ccccc4n(-c4ccc(Cl)c(Cl)c4)c-3cc2=NC2CCNCC2)cc1Cl,-,-,-,2230 (SM INH RIF-RES),-,MIC,0.25 µg/mL
NC(=S)NN=C1CCCCCCC1,-,-,BACTEC,H37Rv,12.5 µg/mL,inhibition,94%
Fc1ccc(C(Cn2ccnc2)NC/C=C/c2ccccc2)cc1,-,-,-,CIP103471,-,MIC,8 µg/mL
CCCCc1ccc(NCc2ccc(O)c(OC)c2)cc1,-,-,resazurin,H37Ra,-,MIC90,>200 µM
O=C(Nc1ccccc1N1CCSCC1)c1ccc(Cl)cc1,-,-,-,103471,-,MIC,>16 µg/mL
O=C(Nc1nc(-c2cccs2)cs1)c1cc(-c2ccc(-c3ccc([N+](=O)[O-])s3)s2)nc2ccccc12,-,-,fluorescence,H37Rv,-,MIC,6.25 µg/mL
CCCCCCCCO[C@H]1O[C@H](CO[C@H]2O[C@H](CO)[C@@H](O)[C@@H]2O)[C@@H](O)[C@@H]1O,-,-,-,H37Ra,-,MIC,>128 µg/mL
Cc1ccc(/C=N/N=C(\N)c2ccncc2)c(C)c1,-,-,-,1481,-,MIC,4 µg/mL
CCCCCCCCO[C@@H]1O[C@H]([C@@H](COC)O[C@H]2O[C@H](CO)[C@@H](O)[C@@H]2O)[C@H](OC)[C@H]1OC,-,-,-,H37Ra,-,MIC,>128 µg/mL
O=C(CCc1ccc(F)cc1)c1ccc(Oc2ccccc2)c(O)c1,-,-,resazurin,H37Rv,-,MIC,10 µg/mL
COc1cc2c(cc1O)CC[n+]1cc3c(OC)c(OC)ccc3cc1-2,-,-,BACTEC,H37Rv,12.8 µg/mL,inhibition,9%
CCCCCCCCCCCCCCc1ccc(NCc2ccc(O)c(OC)c2)cc1,-,-,resazurin,H37Ra,200 µM,inhibition,<50%
Cc1cc2oc(=O)cc(-c3cccc(N)c3)c2c(C)c1-c1ccc(CN2CCOCC2)cc1,-,-,turbidity,H37Rv,-,EC99,0.24 µM
CCCCCCCCP(=O)([O-])C[C@@H]1O[C@H](CO)[C@@H](O)[C@@H]1O,-,-,-,H37Rv,6.25 µg/mL,inhibition,0%
CC[C@]1(O)C[C@H]2CN(CCC3=C(NC4CC=CC=C34)[C@@](C(=O)OC)(c3cc4c(cc3OC)N(C)[C@@H]3[C@]45CCN4CC=C[C@@](CC)(C(OC(=O)CCCCCCCCCCCN6C(=O)C=CC6=O)[C@]3(O)C(=O)OC)[C@H]45)C2)C1,-,-,BACTEC,H37Rv,-,MIC,≥12.5 µg/mL
COc1ccc2ccc(=O)oc2c1CC(=O)C(C)C,-,-,-,H37Rv,-,MIC,100 µg/mL
Oc1ccc([C@H]2Oc3cc(O[C@@H]4OC[C@@H](O)[C@H](O)[C@H]4O)cc(O)c3C[C@@H]2O)cc1O,-,-,BACTEC,H37Rv,-,MIC bound,>12.5 µg/mL
Cc1c(-c2ccc(CCO)cc2)ccc2oc(=O)cc(-c3ccccc3)c12,-,-,turbidity,H37Rv,-,EC90,70 µM
CCCCCCCCCCCCS(=O)(=O)C[C@@H]1O[C@H](CO)[C@@H](O)[C@@H]1O,-,-,-,H37Rv,-,EC50,>6.25 µg/mL
COC(=O)C1(NC(=O)C(Cc2ccccc2)NC(=O)C(NC(=O)C(CCCCNC(=O)OC(C)(C)C)NC(=O)C(Cc2c[nH]c3ccccc23)NC(=O)C(Cc2ccccc2)NC(=O)OCc2ccccc2)C(C)OC(C)(C)C)CCCC1,-,-,BACTEC,H37Rv,12.5 µg/mL,inhibition,6%
CCCCCCCCCCCCCCCCP(=O)([O-])C[C@@H]1O[C@H](CO)[C@@H](O)[C@@H]1O,-,-,-,H37Rv,6.25 µg/mL,inhibition,0%
CO[C@H]1/C=C/O[C@@]2(C)Oc3c(C)c(O)c4c(=O)c(c5oc6cc(N7CCN(CC(C)C)CC7)cc(=O)c6nc5c4c3=C2O)NC(=O)/C(C)=C\C=C\[C@H](C)[C@H](O)[C@@H](C)[C@@H](O)[C@@H](C)[C@H](OC(C)=O)[C@@H]1C,-,-,-,Erdman,-,MIC,0.002 µg/mL
Cc1ccc(S(=O)(=O)n2nc([C@@H]3O[C@H](CO)[C@@H](O)[C@H]3O)c(O)c2C(N)=O)cc1,-,-,BACTEC,H37Rv,-,MIC bound,>12.5 µg/mL
Clc1ccc(CNc2ccccc2N2CCOCC2)cc1,-,-,-,103471,-,MIC,8 µg/mL
Cc1cc2oc(=O)cc(-c3ccccc3)c2c(C)c1-c1ccncc1,-,-,turbidity,H37Rv,-,EC99,5.6 µM
COc1cccc(/C=N/N=C(\N)c2ccncc2)c1OC,-,-,-,1481,-,MIC,>256 µg/mL
CO[C@H]1/C=C/O[C@@]2(C)Oc3c(C)c(O)c4c(O)c(cc(O)c4c3C2=O)NC(=O)/C(C)=C\C=C\[C@H](C)[C@H](O)[C@@H](C)[C@@H](O)[C@@H](C)[C@H](OC(C)=O)[C@@H]1C,-,-,-,H37Ra,-,MIC,0.05 µg/mL
CC(C)(O)[C@H](O)COc1c2occc2cc2ccc(=O)oc12,-,-,-,H37Rv,-,MIC,100 µg/mL
CCCCCCCCO[C@H]1O[C@H](CO[C@H]2O[C@H](CO)[C@@H](O)[C@@H]2O)[C@@H](OC)[C@@H]1OC,-,-,-,H37Ra,-,MIC,>128 µg/mL
C/C=C1/CN2[C@H]3C[C@@H]1[C@@H](CO)[C@@H]2Cc1c3[nH]c2ccc(OC)cc12,-,-,-,H37Rv,-,MIC,100 µg/mL
C=C1C(=O)O[C@@H]2C[C@@]3(C)C=CC(=O)C(=C)[C@@H]3C[C@H]12,-,-,-,RMP-R,-,MIC,12.5 µg/mL
Clc1ccc(C(Cn2ccnc2)NC/C=C/c2ccccc2)cc1,-,-,-,CIP103471,-,MIC,>16 µg/mL
CCCCCCCCCCCCCCCCCCCCS(=O)(=O)C[C@@H]1O[C@H](CO)[C@@H](O)[C@@H]1O,-,-,-,H37Rv,-,EC50,>6.25 µg/mL
Fc1ccc(C(Cn2ccnc2)NCc2ccc(-c3ccccc3)cc2)cc1,-,-,-,CIP103471,-,MIC,4 µg/mL
C/C(=N\NC(=S)N1CC(C)OC(C)C1)c1cnccn1,-,-,BACTEC,H37Rv,12.5 µg/mL,inhibition,3.2%
COc1cccc2ccc(N3CCC(c4nc(-c5ccc(NCCO)nc5)no4)CC3)nc12,-,-,resazurin,H37Rv,-,MIC,15.6–31.5 µM
CCCCC(=O)N/N=C/c1ccc(Cl)cc1,-,-,BACTEC,H37Rv,-,MIC,≥12.5 µg/mL
CCCCCCCCNCc1ccc(O)c(OC)c1,-,-,resazurin,H37Ra,-,MIC90,200 µM
Cc1ccc(C)c(/C=N/N=C(\N)c2ccncc2)c1,-,-,-,1342,-,MIC,128 µg/mL
C=C1C2CC[C@H](C=O)C(O)(C=O)[C@@]2(C)CC[C@@H]1C,-,-,-,H37Rv,-,MIC,100 µg/mL
COc1cccc2ccc(N3CCC(c4nc(-c5ccc(OC(F)(F)F)cc5)no4)CC3)nc12,-,-,resazurin,H37Rv,-,MIC,50–100 µM
N/C(=N\N=C\c1ccc(Cl)c([N+](=O)[O-])c1)c1ccncc1,-,-,-,1054,-,MIC,>256 µg/mL
Cc1ccc(CCC(O)c2ccc(Oc3ccccc3)c(O)c2)cc1,-,MDR,resazurin,Clinical isolate,-,MIC,3.125 µg/mL
Cc1ccc(NC(=O)c2cc3c(cc2Cl)Sc2nccn2S3(=O)=O)cc1,-,-,resazurin,H37Rv,-,MIC bound,>6.25 µg/mL
Fc1ccc(C(Cn2ccnc2)NCc2cccc3ccccc23)cc1,-,-,-,CIP103471,-,MIC,>16 µg/mL
O=[N+]([O-])c1ccc(/C=C(\c2ccc([N+](=O)[O-])o2)S(=O)(=O)c2ccccc2)o1,-,-,BACTEC,H37Rv,12.5 µg/mL,inhibition,95%
NNC(=O)c1ccncc1,-,-,fluorescence,H37Rv,-,MIC,0.16 µM
CN(C)c1ccc(C(=NOC(=O)c2ccccc2)c2ccc(N(C)C)cc2)cc1,-,-,resazurin,H37Rv,6.25 µg/mL,inhibition,42%
CCCCCCCCc1ccc(NCc2ccc(O)c(OC)c2)cc1,-,-,resazurin,H37Ra,-,EC50,70.5 µM

A second listing of 6 rows from above:

structure | conditions | changes | method | strain or isolate | dose | endpoint | result
CCCCCCCCP(=O)([O-])C[C@@H]1O[C@H](CO)[C@@H](O)[C@@H]1O | - | - | - | H37Rv | 6.25 µg/mL | inhibition | 0%
CCCCCCCCO[C@H]1O[C@H](CO[C@H]2O[C@H](CO)[C@@H](O)[C@@H]2O)[C@@H](O)[C@@H]1O | - | - | - | H37Ra | - | MIC | >128 µg/mL
CC(C)(O)[C@H](O)COc1c2occc2cc2ccc(=O)oc12 | - | - | - | H37Rv | - | MIC | 100 µg/mL
CO[C@H]1/C=C/O[C@@]2(C)Oc3c(C)c(O)c4c(=O)c(c5oc6cc(N7CCN(CC(C)C)CC7)cc(=O)c6nc5c4c3=C2O)NC(=O)/C(C)=C\C=C\[C@H](C)[C@H](O)[C@@H](C)[C@@H](O)[C@@H](C)[C@H](OC(C)=O)[C@@H]1C | - | - | - | Erdman | - | MIC | 0.002 µg/mL
c1ccc(-c2ccc(CNC(Cn3ccnc3)c3ccccc3)cc2)cc1 | - | - | - | CIP103471 | - | MIC | 4 µg/mL
Clc1ccc(C(Cn2ccnc2)NC/C=C/c2ccccc2)cc1 | - | - | - | CIP103471 | - | MIC | >16 µg/mL